Laboratory results published in publication PMC4118376 (Sensors (Basel, Switzerland), 2014).

How the values were obtained:
[1] = target: T1, SEB peptide fragment 9 (VKSIDQFLYFDLIYSI) (Staphylococcus aureus (synthetic …, biotin (position not given))); assay: SPR; conditions: both partners purified
T1 chain: VKSIDQFLYFDLIYSI

[2] = target: T2, SEB peptide 4 (VLAESQPDPKPDELHK) (Staphylococcus aureus (synthetic …, biotin (position not given))); assay: SPR; conditions: both partners purified
T2 chain: VLAESQPDPKPDELHK

B1: sdAb F1 (VHH)
VHH: DVQLQASGGGLVQAGGSLRLTCAASLHTFGSYAMGWFRQAPGKEREFVAAISWSGGDTYSDSVKGRFTISRDNAKNTVYLQMNSLEPEDTAVYSCAAVEARYYISTDAKDYGYWGQGTQVTVSS
notes: source: E. coli Rosetta (DE3), periplasm, purified (IMAC, size exclusion chromatography)
- binding result [1]: binds

B2: sdAb E2 (VHH)
VHH: EVQLQASGGGLVQAGGSLRLTCAASGRTFGSYAMGWFRQAPGKEREFVAAISWSGGDTYADSVKGRFTISRDNAKNTVYLQMNSLAPEDTAVYSCAAVGARYYISKDAKDYGYWGQGTQVTVSS
notes: as for B1
- binding result [1]: binds

B3: sdAb H9-A1 (VHH)
VHH: EVQLQASGGGLVQPGGSLRLSCAASGSAVSIGFMAWYRQAPGKQRELVARISSSGLPDYADTVKGRFTISRDNTRKTVSLQMNSLNPDDTAVYYCNARLYDGSSAWGQGTQVTVSS
notes: as for B1
- binding result [1]: no binding
- binding result [2]: no binding

B4: sdAb E9 (VHH)
VHH: EVQLQASGGGLVQAGGSLRLSCAASGRDFSDYAMAWFRQAPGKEREFVGTISWYTNTNYADSVKGRFSISRDNAKNTVYLQMSSLKPEDTAVYYCAAAPARYYNPYKRESEYGYWGQGTQVTVSS
notes: as for B1
- binding result [1]: binds

B5: sdAb H12 (VHH)
VHH: EVQLQASGGGLVLTGGSLRLSCAASGRNFSNYAMAWFRQAPGKEREFVGTISWYTNTNYANSVKGRFSISRDNAKNTVYLQMSSLKPEDTAVYYCAAAPAMYYNPYTRESEYGYWGQGTQVTVSS
notes: as for B1
- binding result [1]: binds

B6: sdAb D9 (VHH)
VHH: EVQLQASGGGLAQAGDSLRLSCAASIRTFGSYAMGWFRQAPGKEREFVAAISWSGGDTYADSAKGRFTISRDNAKNMMYLQMNSLAPEDTAVYFCAIVEAKYYISKDARDYGYWGQGTQVFVSS
notes: as for B1
- binding result [1]: binds

B7: sdAb A10 (VHH)
VHH: EVQLQASGGGLVRAGGTLRLTCDATTPTFGSYAMGWFRQAPGKEREFVSAISWSGGDTYADSVKGRFTISRDNTRNRVYLQMNDLEPDDTAIYTCARTTARYYISKDAKDYDYWGQGTQVTVSS
notes: as for B1
- binding result [1]: binds

B8: sdAb H9-H11 (VHH)
VHH: DVQLQASGGGLVQPGGSLRLSCAASESAVRIGFMGWHRQAPGNQRERVAQISSTGLPTYADAVKGRFTISRDNTKNTVYLQMNSLNADDTAVYFCNARLYDGTSVWGQGTQVTVSS
notes: source: E. coli, periplasm, purified (IMAC, size exclusion chromatography)
- binding result [1]: no binding
- binding result [2]: no binding

B9: sdAb S222-A2 (VHH)
VHH: DVQLQASGGGLVEPGGSLRLSCAASGSAVSIGFMGWHRQAPGKQRERVAQISSTGIPNYADTVKGRFTISRDNTKNTMYLQMNSLNADDTAVYFCNARLYDGTSAWGQGTQVTVSS
notes: as for B8
- binding result [1]: no binding
- binding result [2]: no binding

B10: sdAb H9-D7 (VHH)
VHH: DVQLQASGGGLVQVGGSLRLSCAASGSTFRIGYMSWHRQAPGKSRELVARISSGGTTDYLDSVKDRFTISRDNTKNTVYLQMNSLEPEDTAVYYCNVVDYRANEYWGQGTQVAVSS
notes: as for B1
- binding result [1]: no binding
- binding result [2]: no binding

B11: sdAb H9-B11 (VHH)
VHH: DVQLQASGGGLVQVGGSLRLSCAASGSTFRIGYMGWYRQAPGKPRELVARISSGGTTDYLDFVKDRFTISRDNAKNTVYLQMSSLKPEDTAVYYCNVVNYRANEYWGQGTQVTVSS
notes: as for B8
- binding result [1]: no binding
- binding result [2]: no binding

B12: sdAb B12 (VHH)
VHH: EVQLQASGGGLVQAGGPLRLTCAVSGPTFGSYALGWFRQAPGKEREFVAAVSWSGGDTYADSVKGRFIISRDNAKNTVYLQMNNLEPEDTAVYSCARMQDRYYISKDAKDYGYWGQGTQVTVSS
notes: as for B1
- binding result [1]: binds

B13: sdAb B1 (VHH)
VHH: EVQLQASGGGLVQAGGSLRLTCAVSGPTFGSYALGWFRQAPGKEREFVAAVSWSGGDTYADTAKGRFIISRDNAKNTVYLQMNNLEPEDTAVYSCARMQDRYYISKDAKDYGYWGQGTQVIVSS
notes: as for B1
- binding result [1]: binds

B14: sdAb H9 (VHH)
VHH: EVQLQASGGGLVQAGGSLRLTCAVSGPTFGSYALGWFRQAPGKEREFVAAVSWSGGDTYADSVKGRFIISRDNAKNTVYLQMNNLEPEDTAVYSCARMQDRYYISKDAKDYGYWGQETQVTVSS
notes: as for B1
- binding result [1]: binds
